Measurements as given in patent publication US20060083830A1, “Polylysine-containing food additive and acidic adjuvant” (priority 2004, published 2006).

Test system: E. coli O157:H7
Assay: E. coli O157:H7 on boiled dumplings with ε-polylysine in the dough, room temperature (22-25° C.), CFU determination
Conditions: for Log Reduction: vs control Group A

poly(imino(2-amino-1-oxo-1,6-hexanediyl)) [ε-PL]
average Log Value (1000 ppm ε-PL, after 3 hours): 3.35
average of CFU/dumpling (1000 ppm ε-PL, after 3 hours): 2.25E+03 CFU/dumpling
Log Reduction (1000 ppm ε-PL, after 3 hours): 0.35
average Log Value (1000 ppm ε-PL, after 24 hours): 6.56
average of CFU/dumpling (1000 ppm ε-PL, after 24 hours): 3.61E+06 CFU/dumpling
Log Reduction (1000 ppm ε-PL, after 24 hours): 2.34
average Log Value (1000 ppm ε-PL, after 48 hours): 7.81
average of CFU/dumpling (1000 ppm ε-PL, after 48 hours): 6.51E+07 CFU/dumpling
Log Reduction (1000 ppm ε-PL, after 48 hours): 1.89
average Log Value (1000 ppm ε-PL, after 72 hours): 8.24
average of CFU/dumpling (1000 ppm ε-PL, after 72 hours): 1.74E+08 CFU/dumpling
Log Reduction (1000 ppm ε-PL, after 72 hours): 1.61
average Log Value (2000 ppm ε-PL, after 3 hours): 2.05
average of CFU/dumpling (2000 ppm ε-PL, after 3 hours): 1.13E+02 CFU/dumpling
Log Reduction (2000 ppm ε-PL, after 3 hours): 1.65
average Log Value (2000 ppm ε-PL, after 24 hours): <2.42
average of CFU/dumpling (2000 ppm ε-PL, after 24 hours): <2.64E+02 CFU/dumpling
Log Reduction (2000 ppm ε-PL, after 24 hours): >6.48
average Log Value (2000 ppm ε-PL, after 48 hours): >5.66
average of CFU/dumpling (2000 ppm ε-PL, after 48 hours): >4.61E+05 CFU/dumpling
Log Reduction (2000 ppm ε-PL, after 48 hours): <4.05
average Log Value (2000 ppm ε-PL, after 72 hours): <4.52
average of CFU/dumpling (2000 ppm ε-PL, after 72 hours): <3.33E+04 CFU/dumpling
Log Reduction (2000 ppm ε-PL, after 72 hours): >5.33
average Log Value (3000 ppm ε-PL, after 3 hours): 1.73
average of CFU/dumpling (3000 ppm ε-PL, after 3 hours): 5.33E+01 CFU/dumpling
Log Reduction (3000 ppm ε-PL, after 3 hours): 1.98
average Log Value (3000 ppm ε-PL, after 24 hours): <2.70
average of CFU/dumpling (3000 ppm ε-PL, after 24 hours): <4.97E+02 CFU/dumpling
Log Reduction (3000 ppm ε-PL, after 24 hours): >6.20
CFU/dumpling (3000 ppm ε-PL, after 48 hours): <1.00E+01 CFU/dumpling
average Log Value (3000 ppm ε-PL, after 48 hours): <1.00
average of CFU/dumpling (3000 ppm ε-PL, after 48 hours): <1.00E+01 CFU/dumpling
Log Reduction (3000 ppm ε-PL, after 48 hours): >8.71
CFU/dumpling (3000 ppm ε-PL, after 72 hours): <1.00E+01 CFU/dumpling
average Log Value (3000 ppm ε-PL, after 72 hours): <1.00
average of CFU/dumpling (3000 ppm ε-PL, after 72 hours): <1.00E+01 CFU/dumpling
Log Reduction (3000 ppm ε-PL, after 72 hours): >8.85
bacteria killed (3000 ppm, inoculation level 6.0×10^3 CFU/dumpling): more than 2 logs
replication of E. coli O157:H7 (final concentration of 3000 ppm in flour portion of dumpling): completely suppressed replication of E. coli O157:H7
